Test system: NA of A/29 (H14N3)
Assay: MUNANA fluorescence NA inhibition assay, whole virus
Settings: read-out: Oseltamivir (Tamiflu) / Mean IC50 ^a (nM) ± SD; MUNANA 100 µM

**Q.** How did the IC50 turn out when `CCC(CC)O[C@@H]1C=C(C(=O)O)C[C@H](N)[C@H]1NC(C)=O` was run?
**A.** Its IC50 is 0.58 nM.
